In article PMC8863163 (Research Square, 2022):
For at least one entry, the source does not settle the construct or the ends of the probe.

By UniProt entry, the sequences of proteins in these tests, tags left out.
UniProt P06730, whole entry K119A: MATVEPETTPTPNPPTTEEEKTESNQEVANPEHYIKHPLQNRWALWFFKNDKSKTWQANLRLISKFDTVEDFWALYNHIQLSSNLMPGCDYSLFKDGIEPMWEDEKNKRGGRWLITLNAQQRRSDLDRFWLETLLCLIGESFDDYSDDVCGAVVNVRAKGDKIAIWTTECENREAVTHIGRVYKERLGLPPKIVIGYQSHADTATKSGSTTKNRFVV

Molecular target: GST-eIF4E K119A (UniProt P06730)
Experiment: GST pull-down, scintillation counting
Details: 5' cap-0 7MeGppp on A1; recombinant protein; protein details: N-terminal GST; label: 32P in cap (from [alpha-32P]GDP)

## AUUAAAGGUU [[32P]7MeGpppA-RNALS10 (made with SARS-CoV-2 nsps)]
  binding result: binds
